The assay addresses tomato mosaic tobamovirus (ToMV) 30K movement protein (tomato mosaic tobamovirus). Briefly: cell-based or functional assay.

The results in this text go back to US20040107458A1.

Take “Tm-2^2 tomato resistance protein (from UniProt Q71BG9 1-861)”: the Seeds with necrotic root (germination assay of the cross of Tm-2^2 homozygous plants with MP homozygous line ATV840-4352) amounted to 112000 seeds.
